Columns and labels:
HIV-1 RT wild type (WT) = HIV-1 RT wild type (WT) (Human immunodeficiency virus type 1 group M subtype B, UniProt P04585); test: Reverse Transcriptase (RT) assay, wild type enzyme; assay type: biochemical; settings: read-out: IC50 WT RT
Source text: (§1) Among the enzymes for which Human Immunodeficiency Virus (HIV-1) encodes is a reverse transcriptase (1), so-named because it transcribes a DNA copy from an RNA template. This activity can be quantitatively measured in a cell-free enzyme assay, which has been previously described (2), and is based upon the observation that reverse transcriptase is able to use a synthetic template poly r(C) primed with oligo d(G) to transcribe a radio-labelled, acid-precipitable DNA strand utilising ^3H-dGTP as a substrate. The assay described below utilises the wild type (WT) enzyme, which is the predominant form of the enzyme observed with patients infected with HIV-1. Utilisation of mutant RT enzymes (for example, Y181C, prepared by site-directed mutagenesis in which the tyrosine residue at codon 181 has been replaced by a cysteine residue, or the mutants K103N, V106A and Y188C) and analogous assay conditions allows compounds to be evaluated for their effectiveness at inhibiting the mutant enzymes.
(§2) The HIV-1 RT expression clone, pKRT2, was obtained from Yale University (3). An overnight culture, grown in 2×YT medium (37° C., 225 rpm) (4), supplemented with 100 μg/mL ampicillin for positive selection was used to inoculate the 2×YT medium. The culture was incubated (37° C., 225 rpm) until it reached an OD600 of 0.6-0.9. […]

[1] = test system: HIV replication in T-lymphocytes, virus coding for mutant enzyme K103N/Y181C; test: ELISA (p24) assay for activity in cell culture, mutant virus; assay type: cell-based; settings: read-out: EC50 K103N/Y181C
Experimental: (§3) ELISA Assay for Assessment of Activity in Cell Culture
(§4) Compounds of the invention were tested for their ability to inhibit HIV replication in cell culture. Viruses coding for Wild type and mutant enzymes were used. T-lymphocytes were infected with the virus, infected cells were incubated in the presence of varying amounts of compounds of the invention, and an ELISA assay for the viral protein p24 was used to quantify viral replication. Table 9 lists the results as EC50 (nM).

[2] = test system: HIV replication in T-lymphocytes, virus coding for wild type enzyme; test: ELISA (p24) assay for activity in cell culture, wild type virus; assay type: cell-based; settings: read-out: EC50 WT RT
Experimental: as §3, §4

[3] = biological target: HIV-1 RT double mutant K103N/Y181C (Human immunodeficiency virus type 1 group M subtype B, UniProt P04585, K690N/Y768C); test: Reverse Transcriptase (RT) assay, double mutant enzyme; assay type: biochemical; settings: read-out: IC50 K103N/Y181C
Source text: as §1, §2

CCN1c2ncc(CCOc3cccc4c3CCS(=O)(=O)N4CCC(C)(C)C(=O)O)cc2C(=O)N(C)c2cccnc21
< 100 nM: IC50 (HIV-1 RT wild type (WT)) | EC50 [1] | EC50 [2] | IC50 [3]
